Measured values from several laboratories, pooled; numbers as filed in NIAID ChemDB.

Shared fields: growth or infection tests; organism: Candida albicans; read by: broth dilution; read-out: MIC

Blank or dashed fields: not listed here.

structure,strain,setting,value
CC(C)OC(=O)C1OC(c2ccccc2O)OC1C(=O)OC(C)C,ATCC 10231,-,156 µg/mL
CC1S[C@H](c2ccc(Cl)cc2)N(c2nc(N3CCN(C)CC3)n[nH]2)C1=O,A39,-,<1 µg/mL
Clc1cc2ncn(-c3ccc(-c4nc5ccccc5[nH]4)cc3)c2cc1Cl,ATCC 10231,-,12.5 µg/mL
Cn1ccnc1Cc1nccn1C,ATCC 10231,24 h,500 µg/mL
C[C@@H](c1ncncc1F)[C@](O)(Cn1cncn1)c1ccc(F)cc1F,W111,-,1 µg/mL
C[C@H]1[C@H](O)[C@@H](C)/C=C/C=C/C=C/C=C/C=C/C=C/C=C/[C@H](O[C@@H]2O[C@H](C)[C@@H](O)[C@H](N)[C@@H]2O)C[C@@H]2O[C@](O)(C[C@@H](O)C[C@@H](O)CC[C@H](O)[C@@H](O)C[C@@H](O)CC(=O)O[C@H]1C)C[C@H](O)[C@H]2C(=O)O,-,-,2.07 µg/mL
COc1ccc(N2C(=O)CC(c3c(C)nn(-c4ccc(C)cc4)c3Cl)C3=C2CCCC3=O)cc1,MTCC 227,-,500 µg/mL
Clc1ccc2c(c1)ncn2-c1ccc(-c2nc3ccccc3[nH]2)cc1,ATCC 10231,-,6.25 µg/mL
CN1CCN(c2n[nH]c(N3C(=O)CS[C@@H]3c3ccc4c(c3)OCO4)n2)CC1,A39,-,1.56 µg/mL
Cc1cc(Cl)[nH]c2ccc3c(=O)c(C(=O)NN=Cc4ccccc4)cnc3c12,-,-,250 µg/mL
CN(N=C(N)c1cnccn1)S(=O)(=O)c1ccccc1,-,-,>256 µg/mL
Fc1ccc2c(c1)ncn2-c1ccc(-c2nc3ccccc3[nH]2)cc1,ATCC 10231,-,12.5 µg/mL
Cc1cc(Cl)[nH]c2ccc3c(=O)c(C(=O)NN4C(=O)C(Cl)C4c4cccc([N+](=O)[O-])c4O)cnc3c12,-,-,500 µg/mL
O=[N+]([O-])c1ccc2c(c1)ncn2-c1ccc(-c2nc3ccccc3[nH]2)cc1,ATCC 10231,-,12.5 µg/mL
C[n+]1cnc(-c2cnccn2)[nH]1,-,-,>256 µg/mL
Cc1cc(Cl)[nH]c2ccc3c(=O)c(C(=O)NN=Cc4ccccc4O)cnc3c12,-,-,100 µg/mL
CC1S[C@H](c2ccc3c(c2)OCO3)N(c2nc(N3CCN(C)CC3)n[nH]2)C1=O,A39,-,3.12 µg/mL
COC(=O)[C@@H]1OC(c2ccccc2O)O[C@H]1C(=O)OC,ATCC 10231,-,312.5 µg/mL
C[C@@H]1[C@H](O)[C@@H](C)/C=C/C=C/C=C/C=C/C=C/C=C/C=C/[C@H](O[C@@H]2O[C@H](C)[C@@H](O)[C@H](N)[C@@H]2O)C[C@@H]2O[C@](O)(C[C@@H](O)C[C@@H](O)[C@H](O)CC[C@@H](O)C[C@@H](O)CC(=O)O[C@H]1C)C[C@H](O)[C@H]2C(=O)O,UMIP 48.72,-,0.064 µg/mL
CC(C)(O)c1cn(-c2ccc(Cl)cc2)nn1,URM 4260,-,128 µg/mL
Cc1nn(-c2ccccc2)c(Cl)c1C1CC(=O)N(c2ccc(F)cc2)C2=C1C(=O)CC(C)(C)C2,MTCC 227,-,1000 µg/mL
NC(=NNc1ccccc1)c1cnccn1,-,-,32 µg/mL
CCCCCCCCCCCC[n+]1cccc2ccccc21,ATCC 44859,24 h,0.01562 µg/mL
COc1cncc(C(N)=NNS(=O)(=O)c2ccc(C)cc2)n1,-,-,>256 µg/mL
COc1ccc(N2C(=O)CC(c3c(C)nn(-c4ccc(C)cc4)c3Cl)C3=C2CC(C)(C)CC3=O)cc1,MTCC 227,-,1000 µg/mL
CCOc1ccc2nc3cc(N=C4NC(=O)/C(=C\C=C\c5ccc([N+](=O)[O-])o5)S4)ccc3c(N)c2c1,ATCC 60193,-,500 µg/mL
NC(=NNc1ccccc1)c1cncc(Cl)n1,-,-,32 µg/mL
CC1S[C@H](c2ccc3c(c2)OCO3)N(c2nc(N3CCOCC3)n[nH]2)C1=O,A39,-,12.2 µg/mL
COc1ccc(N2C(=O)CC(c3c(C)nn(-c4cccc(Cl)c4)c3Cl)C3=C2CC(C)(C)CC3=O)cc1,MTCC 227,-,500 µg/mL
CNN=C(N)c1cnccn1,-,-,>256 µg/mL
C[n+]1c[nH]cc1-c1ccccc1,ATCC 10231,48 h,500 µg/mL
COc1cncc(C(N)=NNc2ccccc2)n1,-,-,16 µg/mL
Cc1ccc2c(c1)ncn2-c1ccc(-c2nc3ccccc3[nH]2)cc1,ATCC 10231,-,12.5 µg/mL
COc1ccccc1C=NNC(=O)c1cnc2c(ccc3[nH]c(Cl)cc(C)c32)c1=O,-,-,500 µg/mL
CCCOC(=O)CC(c1nccn1C)c1nccn1C,ATCC 10231,48 h,>512 µg/mL
C[C@H]1[C@H](O)[C@@H](C)/C=C/C=C/C=C/C=C/C=C/C=C/C=C/[C@H](O[C@@H]2O[C@H](C)[C@@H](O)[C@H](N)[C@@H]2O)C[C@@H]2O[C@](O)(C[C@@H](O)C[C@@H](O)CC[C@H](O)[C@@H](O)C[C@@H](O)CC(=O)O[C@H]1C)C[C@H](O)[C@H]2C(=O)O,ATCC 10231,-,0.125 µg/mL
Clc1ccccc1C(c1ccccc1)(c1ccccc1)n1ccnc1,IFO 0583,-,2 µg/mL
O=c1c(OC2CCCC2)c(N2CCN(S(=O)(=O)NCc3ccccc3)CC2)cnn1-c1cccc(Cl)c1,C693,-,6.25 µg/mL
Cn1cnc(-c2ccccc2)c1,ATCC 10231,48 h,500 µg/mL
COc1ccccc1C1C(Cl)C(=O)N1NC(=O)c1cnc2c(ccc3[nH]c(Cl)cc(C)c32)c1=O,-,-,250 µg/mL
O=S(=O)(c1ccccc1)n1cnc(-c2cncc(Cl)n2)n1,-,-,>256 µg/mL
Cc1ccc([C@H]2SC(C)C(=O)N2c2nc(N3CCN(C)CC3)n[nH]2)cc1,A39,-,10 µg/mL

The last 3 rows once more:

{"structure": "COc1ccccc1C1C(Cl)C(=O)N1NC(=O)c1cnc2c(ccc3[nH]c(Cl)cc(C)c32)c1=O", "value": "250 µg/mL"}
{"structure": "O=S(=O)(c1ccccc1)n1cnc(-c2cncc(Cl)n2)n1", "value": ">256 µg/mL"}
{"structure": "Cc1ccc([C@H]2SC(C)C(=O)N2c2nc(N3CCN(C)CC3)n[nH]2)cc1", "strain": "A39", "value": "10 µg/mL"}

Neighbouring rows are from separate reports.